Measured values reported in patent US5677432A, “Immunological detection of organophosphates” (dated 1997).

Test system: cholinesterase
Assay: Inhibition of cholinesterase activity, pesticide biosensor detector kit (Enzytec)

## COP(=S)(OC)SCn1nnc2ccccc2c1=O
  concentration showing inhibition of cholinesterase: greater than 0.3 ppm

## CCOP(=S)(OCC)Oc1ccc([N+](=O)[O-])cc1
  concentration showing inhibition of cholinesterase: > 2 ppm
